# Data as given in PubChem BioAssay AID720580 (National Center for Advancing Translational Sciences (NCATS), 2013).
# Only a part is listed here, and it is no random draw. Results filed as inconclusive are left out. Activity calls are given as the source filed them. Calls follow the shape of the full dose curve; tested in A549 cells.
# Assay: qHTS for Stage-Specific Inhibitors of Vaccinia Orthopoxvirus: Venus Reporter Primary qHTS; also: nearly all actives have a fitted effect of over 30% in size
# Settings: Vaccinia virus Venus reporter expression, fluorescence; at 36.5 µM (top of the series)
# % is scaled to controls: 0 for no effect and ±100 for the full control effect.
row,Compound,"activity change, negative = inhibition"
1,O=[As](O)(c1ccccc1)c1ccc(O)cc1,inactive: 1.04%
2,CN(C)C(=O)c1cc([N+](=O)[O-])cc2c1-c1c(cc([N+](=O)[O-])cc1[N+](=O)[O-])C2=O,inactive: 4.97%
